# Measured values as given in US20040059104A1, “Nucleotide mimics and their prodrugs” (priority 2002, published 2004).
# Test system: HIV-1RF
# Assay: Anti-HIV-1 cytoprotection assay in CEM-SS cells
# Assay type: cell-based
# Conditions: TC50/IC50 in CEM-SS cells
# Protocol: ollowing paper: Structure-Activity and Cross-Resistance unodeficiency Virus Type 1-Specific ckheit, Jr. et al., Antimicrobial Agents and s were evaluated in CEM-SS cell cultures V-1RF at an MOI of approximately 0.01. At he soluble tetrazolium-based dye MTS viability and quantify compound toxicity of metabolically active cells to yield a soluble analysis of cell viability and compound
# Efficacy Evaluation in CEM-SS Cells Anti-HIV-1 Cytoprotection Assay
# Cell Preparation—CEM-SS cells were passaged in T-75 flasks prior to use in the antiviral assay. On the day preceding the assay, the cells were split 1:2 to assure they were in an exponential growth phase at the time of infection. Total cell and viability quantification was performed using a hemacytometer and trypan blue exclusion. Cell viability was greater than 95% for the cells to be utilized in the assay. The cells were resuspended at 5×10^4 cells/ml in tissue culture medium and added to the drug-containing microtiter plates in a volume of 50 μl.
# Virus Preparation—The virus used for these tests was the lymphocytropic virus strain HIV-1RF. This virus was obtained from the NIH AIDS Research and Reference Reagent Program and was grown in CEM-SS cells for the production of stock virus pools. For each assay, a pre-titered aliquot of virus was removed from the freezer (−80° C.) and allowed to thaw slowly to room temperature in a biological safety cabinet. The virus was resuspended and diluted into tissue culture medium such that the amount of virus added to each well in a volume of 50 μl was the amount determined to give between 85 to 95% cell killing at 6 days post-infection.
# At assay termination, the assay plates were stained with the soluble tetrazolium-based dye MTS (CellTiter Reagent Promega) to determine cell viability and quantify compound toxicity. MTS is metabolized by the mitochondrial enzymes of metabolically active cells to yield a soluble formazan product, allowing the rapid quantitative analysis of cell viability and compound cytotoxicity. […] At termination of the assay, 20 μL of MTS reagent was added per well. The microtiter plates were then incubated 4-6 hrs at 37° C. for the HIV cytoprotection assay; the incubation intervals were chosen based on empirically determined times for optimal dye reduction. Adhesive plate sealers were used in place of the lids, the sealed plate was inverted several times to mix the soluble formazan product and the plate was read spectrophotometrically at 490 nm with a Molecular Devices Vmax plate reader.
row,Molecule,Therapeutic Index
1,"3′-Azido-3′-deoxythymidine 5′-α-P-borano-β,γ-difluoromethylene-γ-O-palmityltriphosphate [Compound 41]",8.53
2,"3′-Azido-3′-deoxythymidine 5′-α-P-borano-γ-O-(S-pivaloyl-2-thioethyl)-β,γ-(difluoromethylene)triphosphate [Compound 70]",>210.89
3,"[BH3-][P+](O)(OCC1OC(n2cc(C)c(=O)[nH]c2=O)CC1N=[N+]=[N-])OP(=O)(O)C(F)(F)P(=O)(O)O (single isomer, unassigned) [Compound 27-isomer 1, 3′-Azido-3′-deoxythymidine 5′-α-P-borano-β,γ-(difluoromethylene)triphosphate]",122.32
4,"BP(=O)(OC[C@H]1O[C@@H](n2cc(C)c(=O)[nH]c2=O)C[C@H]1N=[N+]=[N-])OP(=O)(O)C(F)(F)P(=O)(O)Oc1ccccc1 (stereo partly drawn) [Compound 42, 3′-Azido-3′-deoxythymidine 5′-α-P-borano-β,γ-difluoromethylene-γ-O-phenyltriphosphate]",12.64
5,"BP(=O)(OC[C@H]1O[C@@H](n2cc(C)c(=O)[nH]c2=O)C[C@H]1N=[N+]=[N-])OP(=O)(O)C(F)(F)P(=O)(O)OCOC(=O)C(C)(C)C (stereo partly drawn) [Compound 69, 3′-Azido-3′-deoxythymidine 5′-α-P-borano-γ-O-(pivaloyloxymethyl)-β,γ-(difluoromethylene)triphosphate]",40.75
